One assay addresses T1, SARS-CoV-2 SD1-RBD Beta (SARS-CoV-2 Beta).
T1 construct: domain: SD1-RBD
As to the kind of experiment: protein ELISA. On the technique in general: In an ELISA, binding on a coated surface is turned into a signal by an enzyme label.

In the next assay the target is T2, SARS-CoV-2 SD1-RBD Gamma (SARS-CoV-2 Gamma).
T2 construct: domain: SD1-RBD
As to the kind of experiment: protein ELISA.

The target in the next assay is T3, SARS-CoV-2 SD1-RBD Delta (SARS-CoV-2 Delta).
T3 construct: domain: SD1-RBD
As to the kind of experiment: protein ELISA.

In assay [1] the target is T4, SARS-CoV-2 S Delta (ectodomain) (SARS-CoV-2 Delta).
T4 construct: extracellular domain
Put plainly: protein ELISA.

For assay [2], the target named is T5, SARS-CoV-2 S Omicron BA.4/BA.5 (ectodomain) (SARS-CoV-2 Omicron BA.4/BA.5).
T5 construct: extracellular domain
As to the kind of experiment: protein ELISA.

The target of assay [3] is T6, SARS-CoV-2 S Omicron BA.1 (ectodomain) (SARS-CoV-2 Omicron BA.1).
T6 construct: extracellular domain
Put plainly: protein ELISA.

Assay [4] concerns the target T7, SARS-CoV-2 S ectodomain, Delta (SARS-CoV-2 Delta).
T7 construct: extracellular domain
Put plainly: ELISA on coated S.

Assay [5] concerns the target T8, SARS-CoV-2 S ectodomain, Omicron BA.1 (SARS-CoV-2 Omicron BA.1).
T8 construct: extracellular domain
As to the kind of experiment: ELISA on coated S.

The target of assay [6] is T9, SARS-CoV-2 S ectodomain, Omicron BA.4/BA.5 (SARS-CoV-2 Omicron BA.4/BA.5).
T9 construct: extracellular domain
As to the kind of experiment: ELISA on coated S.

B1: rbd.049 (antibody, V domains shown)
VH: QLQLQESGPGLVKPSETLSLSCTVSGGSISSKSDYWGWIRQSPGKGLEWIGSIYYTGTTYYNPSLKSRVSISLDKSKNQFSLKLNSLTAADTALYYCARDPSIAVATTVYFDAWGQGTLVTVSS
VL: EIVLTQSPGTLSLSPGERATLSCRASESVKSNYLAWYQQKLGQPPRLLIFGASTRATGIPDRFSGSGSGTDFTLTISRLEPEDFAVYYCQQYHTSPPRYTFGQGTKLEIK
As usually defined, the EC50 is the midpoint of the concentration-response curve. For B1, the half-maximal effective concentration (EC50) came out at 1.18 µg/mL with SARS-CoV-2 SD1-RBD Beta; 1.49 µg/mL in the assay with SARS-CoV-2 SD1-RBD Gamma; 0.017 µg/mL with SARS-CoV-2 SD1-RBD Delta; 0.11 µg/mL in assay [1]; 4.2 µg/mL in assay [2].

B2: rbd.035 (antibody, V domains shown)
VH: EVQLLESGGGLIEPGGSLRLSCAASGFPFNTFAMTWVRQPPGKGLEWVATISSRGDYTFYADFVKGRFSISRDNANNALWLDMSGLRAEDTALYYCAKGESGYDLYLYGLDLWGQGTTVTVSS
VL: DIQMTQSPSSLSASVGDGVTITCRASQNINNYLSWYQKKAGKAPKLLIYGASTLHSGVPSRFSGSGSGTDFTLTISSLQPEDFASYYCQQNSPTPPWTFGQGTKVEIK
As for B2, the concentration giving a half-maximal response (EC50) with SARS-CoV-2 SD1-RBD Beta stood at 0.013 µg/mL; in the assay with SARS-CoV-2 SD1-RBD Gamma, 0.0142 µg/mL; with SARS-CoV-2 SD1-RBD Delta, 0.0165 µg/mL; in assay [1], 0.0135 µg/mL; in assay [3] it was 2.72 µg/mL.

B3: hr2.018 (antibody, V domains shown)
VH: EVQLVESGGGLVKPGGSLRLSCVASGSSVIDAWMNWVRQAPGKGLEWVGRIKSKTNGATTDYAAPVKGRFTISRDDSKNLSYLQMNSLKTEDTGIYYCTTSPLPNFDYWGRGTLVTVSS
VL: DIVMTQSPDFLAVSLGERATINCKSSQSVLYSSNNKNYLAWYQQKPGQPPKLLIYWASKRESGVPDRFSGSGSGTDFTLTISSLQAEDVAVYYCQQYYSPAITFGPGTKVDIK
As for B3, the EC50 amounted to 0.159 µg/mL in [4], 0.117 µg/mL in [5] and 0.177 µg/mL in assay [6].

B4: hr2.019 (antibody, V domains shown)
VH: EVQLVESGGGLVKPGGSLRLSCAASGSSVIDVWMNWVRQAPGKGLEWVGRIKTKASGAATDYGAPVKGRFTISRDDSKNLSYLQMNSLRAEDTGIYYCTTSPLPNFDYWGRGTLVTVSS
VL: DIVMTQSPDFLAVSLGETATINCRSSQSVFYFANNKNYLAWYQQKPGQPPKLLIYWASKRESGVPDRFSGSGSGTDFTLTISSLQAEDVATYYCQQYSSPAITFGPGTKVDIK
Regarding B4, the 50% effective concentration (EC50) amounted to 0.104 µg/mL in [4], 0.0845 µg/mL in assay [5] and 0.0773 µg/mL in assay [6].

B5: fp.003 (antibody, V domains shown)
VH: VQLVESGGGVVQPGTSLRLSCTASGFSFSNYAMHWVRQAPGKGLEWVAIISFDTRNKEFADSVKGRFSISRDNSKNSLNLQMNSLRPEDTGVYYCARDLFLSDYDSRGYEPSRGGFDYWGQGTLVTVSS
VL: EIVMTQSPATLSVSPGERATLSCRASQSVSSSLAWYQQKLGQPPRLLIYGASTRATGIPARFSGSGSGTEFTLTISSLKSEDSAVYYCQQYNDWPLLSFGGGTKVEIK
For B5, the figures for the concentration giving a half-maximal response (EC50) in assay [4], in [5] and in [6] were 0.265 µg/mL, 2.08 µg/mL and 0.605 µg/mL, respectively.

B6: fp.001 (antibody, V domains shown)
VH: VQLVESGGGVVQPGRPLRLSCSGSGFIFSNYAMHWVRQAPGKGLEWVAIISFDARNKRYADSVEGRFTISRDNSKNILYLQMNSLRLEDSAVYFCARDLFLSDYDNGVYDPTRGGFDYWGQGTLVTVSS
VL: EIVMTQSPATLSLSPGERATLSCRASQSVNNRLAWYQQKLGQPPRLLISGASTRATGIPARFTGSGSGTEFTLTISSLQSEDFAVYYCQQYHDWPLLSFGGGTKVEIK
With B6, the 50% effective concentration (EC50) stood at 0.186 µg/mL in [4], 1.81 µg/mL in assay [5] and 0.407 µg/mL in assay [6].

B7: fp.004 (antibody, V domains shown)
VH: VQLVESGGGVVQPGTSLRLSCVASGFTFSNYAMHWVRQAPGKGLEWVAIISFDTRNTASAASVKGRFNISRDNSKNSLYLQMNSLRPEDTGVYYCARDLFLSDYDSRGYDPITGGFDCWGQGTLVTVSS
VL: EIVMTQSPAALSVSPGEGATLSCRASQSVGSRLAWYQQKLGRPPRLLIYGASTRATGIPARFSGSGSGTEFTLTISSLQSEDFAVYYCQQYNDWPLLTFGGGTKVKIK
Take B7: the EC50 in [4] is 0.341 µg/mL; in assay [5], 1.74 µg/mL; in [6], 0.476 µg/mL.

B8: hr2.016 (antibody, V domains shown)
VH: EVQLLESGGGLVQPGGSLRLSCAASGFMFSKYAMTWVRQTPGKGLEWVSVISGGGGSTYYADSVKGRFTISRDNSKNTLYLQMNSLRAEDTAVYYCAKLLVVFVIDYWGQGALVTVSS
VL: EIVLTQSPGTLSLSPGERATLFCRASQSVSSNLAWYQQKPGRAPRLLISGASSRATGIPDRFSGSGSGTDFTLTISRLEPEDFAVYYCQQYGSSPPTFGQGTKVEIK
B8: the 50% effective concentration (EC50) stood at 0.0602 µg/mL in assay [4], 0.0396 µg/mL in assay [5] and 0.105 µg/mL in assay [6].

B9: sd1.032 (antibody, V domains shown)
VH: QVQLVQSGAEVKRPGSSVKVSCKASGGTFNNYAMTWVRQAPGQGLEWMGGIIPMLGTENYAQKFQGRVTITADESTSTAHMELSSLRSEDTAVYYCARLTVPTPHSYYSYGLDAWGQGTTVTVSS
VL: QSALTQPASVSGSPGQSITISCTGTSSDVGSYNLVSWFQQHAGRAPKLMIYEGNKRPSGISNRFSGSKSGNTASLTISGLQAEDEADYYCCSYAGSSTHVFGTGTKVTVL
Turning to B9, the half-maximal effective concentration (EC50) with SARS-CoV-2 SD1-RBD Beta was determined as 0.345 µg/mL; with SARS-CoV-2 SD1-RBD Gamma, 0.398 µg/mL; in the assay with SARS-CoV-2 SD1-RBD Delta it was 0.445 µg/mL; in assay [1], 4.47 µg/mL; in assay [3] it was 8.98 µg/mL.

B10: hr2.012 (antibody, V domains shown)
VH: QVQLVQSGAEVKKPGASVKVSCKASGYTFTSHYIHWVRQAPGQGLEWMGIIKPSGGNTIYAQTFQGRVTMTRDTSTSTVYMELRSLTSDDTAVYYCARDQDHGLQRWGQGTLVTVSS
VL: QSVLTQPPSVSAPPGQKVTISCSGSSSNIGNNFVSWYQQLPGTAPKLLIYDNIERPSGIPDRFSGSRSGTSATLGITGLQTGDEADYYCGTWDTSLGAWVFGGGTKVTVL
Take B10: the EC50 in assay [4] amounted to 0.0706 µg/mL; in assay [5], 0.0572 µg/mL; in assay [6] it was 0.0542 µg/mL.

B11: hr2.013 (antibody, V domains shown)
VH: QVQLVQSGAEVKKPGASVKISCKASGYTFTNNYMNWVRQAPGQGLEWMGIIKPSSGSTIYAHKFQGRVTMTRDTSTSTVYMEVRSLTSEDTAVYYCARDQDHGLQNWGQGTLVTVSS
VL: QSVLTQPPSVSAASGQKVTIYCSGSSSNIASNFVSWYQQFPGTAPKLLIYDNNQRPSGIPDRFSGSRSGTSATLGITGLQTGDEADYYCGTWDTSLGAWVFGGGTKLTVL
On to B11, for which the concentration giving a half-maximal response (EC50) in assay [4] was determined as 0.0953 µg/mL; in assay [5] it was 0.0666 µg/mL; in [6], 0.037 µg/mL.

B12: hr2.015 (antibody, V domains shown)
VH: QVQLVQSGAEVKKPGASVKVSCKASGYTFSSYYVNWVRQAPGQGLEWLGIINRSGSSTIYAQKFQGRVTMTRDTSTSTVYLELSSLRSEDTAVYYCARDQDHALHWGQGTLVTVSS
VL: QSVLTQPPSVSAAPGQKVTISCSGSSSNIGSNYVSWYQQLPGTAPKLLIYDNSERPSGIPDRFSGSRSGTSATLGITGLQTGDEADYYCGTWDTSLSAWVFGGGTKLTVL
As for B12, the half-maximal effective concentration (EC50) is 0.31 µg/mL in [4], 0.175 µg/mL in assay [5] and 0.746 µg/mL in assay [6].

B13: fp.005 (antibody, V domains shown)
VH: VQLVESGGGVVQPGNSLRLSCAASGFRFNNYAMHWVRQAPGKGLEWVAIISYEARNEKYADSVKGRFSISRDNAKNTLYLQMNSLRADDTGVYYCARDLFLSDYDTSGYDRTRGGFDYWGQGALVTVSS
VL: EIVMTQSPATLSVSPGERATLSCRASQSVSNGLAWYQHRFGQPPRLLIYGASTRATGIPTRFSGSGSGTEFTLTISSLQSEDFAVYYCQQYDDWPLITFGGGTKVEIK
Consider B13, for which the results for the concentration for a half-maximal effect (EC50) in assay [4], in [5] and in [6] were 0.212 µg/mL, 0.276 µg/mL and 0.421 µg/mL, respectively.

B14: fp.006 (antibody, V domains shown)
VH: VQLVESGGGVVQPGGSLRLSCAASGFNFNNYALHWVRQAPGKGLEWVAIISYEARNKKYGVSVMGRFSISRDNSKSIMYLEMNSLRVEDTGVYYCARDLFLSDYDRSGYDPTRGGFDHWGQGTLVTVSS
VL: EIVMTQSPATLSVSPGERATLSCRASQSVSSSLAWYQHRFGQAPRLLISGASTRATGIPGRFSGSGSGTEFTLTISSLQSEDVAVYYCQQYGDWPLVTFGGGTKVEIK
In the case of B14, the 50% effective concentration (EC50) in assay [4] came out at 0.235 µg/mL; in [5], 0.486 µg/mL; in assay [6] it was 0.346 µg/mL.

B15: hr2.017 (antibody, V domains shown)
VH: EVQLVESGGGLVQPGGSLRLSCAVSGFAFSSSWMHWIRQAPGRGLVWVSRINRDGSTTDYADSVKGRFTISRDNAKATLYLQMNSLRAEDTAVYYCATMGFDYWGQGALVTVSS
VL: DIVMTQSPDSLAVSLGERATINCKSSQNVLYSSNNKNHLSWYQQKPGQPPKLLIYWASTRKSGVPDRFSGSGSGTDFTLTINSLQAEDVAVYYCQQYFSTPNTFGQGTKLEIK
On to B15, for which the values for the EC50 in assay [4], in [5] and in assay [6] were 0.0944 µg/mL, 0.0908 µg/mL and 0.0793 µg/mL, respectively.

B16: fp.008 (antibody, V domains shown)
VH: VQLVESGGGVVQPGRSLRLSCRASGFRFNNYAMHWVRQAPGKGLEWVAIISYEARNEKYAASVKGRFSISRDNAKNTLYLQMNSLRPEDTAIYYCARDVFLSDYDQSGYDVTRGGFDYWGQGTLVTVSS
VL: EIVMTQSPATLSVSPGESATLSCRASQSVSSSLAWYQHKFGQAPRLLIYGASTRATGIPDRFSGSGSGMEFTLTISSLQSEDVAIYYCQQYGDWPLVTFGGGTKVEIK
In the case of B16, the EC50 is 0.378 µg/mL in assay [4], 0.351 µg/mL in assay [5] and 0.558 µg/mL in [6].

Values taken from patent US20250382354A1 (INSTITUTE FOR RESEARCH IN BIOMEDICINE IRB, published 2025).
